{
  "source": "patent US20190086410A1",
  "about": "“FUNCTION-BASED PROBES FOR ENVIRONMENTAL MICROBIOME ANALYSIS AND METHODS OF MAKING AND USING THE SAME” (Battelle Memorial Institute, priority 2017, published 2019)",
  "system": "β-glucuronidases from Escherichia coli, Streptococcus agalactiae, and Clostridium perfringens",
  "details": "catalytic residues mutated from glutamate to alanine",
  "data": [
    {"molecule": "C#CCCCC(=O)Nc1ccc(OC2OC(C(=O)O)C(O)C(O)C2O)c(C(F)F)c1", "note": "(stereo not shown) [GlcA-ABP, 6-(2-(difluoromethyl)-4-(hex-5-ynamido)phenoxy)-3,4,5-trihydroxytetrahydro-2H-pyran-2-carboxylic acid]", "values": [
      {"measurement": "probe labeling of catalytic-residue mutants", "value": "abolished probe labeling"}
    ]}
  ]
}
